Measured values from several laboratories, pooled; numbers as filed in NIAID ChemDB.

Shared fields: whole-cell or culture tests; species: HIV-1; read by: RT activity; endpoint: EC50

Neighbouring rows are from separate reports. Blank or dashed fields: not listed here. ECn is the concentration giving n% inhibition of infection, replication or growth.

SMILES	strain	conditions	cells	changes	result
Cc1ccc(NC(=O)CN2CCN(Cc3nc(-c4ccc(F)cc4)no3)CC2)cc1	-	-	PBMC	-	15.6 µM
NC(=O)NO	-	-	U-937	-	<200 µM
O=c1[nH]c(=O)n([C@H]2O[C@@H](CO)[C@H](O)C2(F)F)cc1I	LAI	-	PBMC	-	>100 µM
CC(=O)N[C@@H](CSC(=O)C(C)C)C(=O)NCCSC(C)=O	BaL	-	MDM	-	~150 µM
C=C(C)[C@@H]1CC[C@]2(NC(=O)C3CC3)CC[C@]3(C)[C@H](CC[C@@H]4[C@@]5(C)CC[C@H](OC(=O)CC(C)(C)C(=O)O)C(C)(C)[C@@H]5CC[C@]43C)[C@@H]12	IIIB	-	MT-2	-	>0.199 µM
Nc1ncnc2c1ccn2[C@H]1C=C[C@@H](CO)C1	LAI	-	CEM + CEM-SS	-	3 µM
CC(=O)N[C@@H](CS)C(=O)NCCS	BaL	-	MDM	-	40 µM
CN1CCN(CCSc2nccc(-c3cccs3)n2)CC1	LAV-1	-	PBMC	-	16.9 µM
CN1c2c(-c3ccccc3)nn(CC(=O)N/N=C/c3ccc(Br)cc3)c2-c2ccccc2S1(=O)=O	LAV-1	-	PBMC	-	>100 µM
c1csc(-c2cc(-c3cccs3)nc(N3CCOCC3)n2)c1	LAV-1	-	PBMC	-	48.5 µM
Nc1nc(=O)n(C2O[C@@H](CO)[C@H](O)C2(F)F)cc1Br	LAI	-	PBMC	-	>100 µM
CC1=N/C(=C/c2ccc(N(C)C)cc2)C(=O)N1c1nc(C)cc(=O)[nH]1	-	-	-	-	65.86 µg/mL
COc1ncc(OC)c2c(C(=O)C(=O)N3CCN(C(=O)c4ccccc4)CC3)c[nH]c12	NL4-3	-	MT-2	-	0.0174 µM
CC(C)C1=C2C3CCC4[C@@]5(C)CC[C@H](OC(=O)CC(C)(C)C(=O)O)C(C)(C)C5CC[C@@]4(C)[C@]3(C)CC[C@@]2(NC(=O)NC(C)(C)C(F)(F)F)CC1=O	IIIB	30% human serum	MT-2	-	<0.199 µM
C=C(C)[C@@H]1CC[C@]2(N)CC[C@]3(C)[C@H](CC[C@@H]4[C@@]5(C)CC[C@H](OC(=O)CC(C)(C)C(=O)O)C(C)(C)[C@@H]5CC[C@]43C)[C@@H]12	IIIB	-	MT-2	-	>0.199 µM
CCN1C[C@H](C)n2c(c(O)c3c(=O)n(Cc4ccc(F)c(Cl)c4)nc(C(=O)NC)c32)C1=O	NL4-3	-	PM1	G118R	0.0035 µM
CC(C)C1=C2[C@H]3CC[C@@H]4[C@@]5(C)CC[C@H](OC(=O)CC(C)(C)C(=O)O)C(C)(C)[C@@H]5CC[C@@]4(C)[C@]3(C)CC[C@@]2(NC(=O)N2CCN(C(=O)OC(C)(C)C)CC2)CC1=O	IIIB	30% human serum	MT-2	-	<0.199 µM
CCCCCCCC/C=C\CCCCCCCC(=O)Nc1nc(N)nc2c1ncn2[C@H]1CO[C@@H](COP(=O)(N[C@@H](C)C(=O)OCC)Oc2ccccc2)O1	LAV-1	-	PBMC	-	0.77 µM
CC(C)C1=C2[C@H]3CC[C@@H]4[C@@]5(C)CC[C@H](OC(=O)CC(C)(C)C(=O)O)C(C)(C)[C@@H]5CC[C@@]4(C)[C@]3(C)CC[C@@]2(NC(=O)CCN2CCCCC2)CC1=O	IIIB	30% human serum	MT-2	-	<0.199 µM
CCCCCC(=O)Nc1nc(N)nc2c1ncn2[C@H]1CO[C@@H](COP(=O)(N[C@@H](C)C(=O)OCC)Oc2ccccc2)O1	LAV-1	-	PBMC	-	2.2 µM
CCCc1cc(=O)oc2c3c(c4c(c12)OC(C)(C)CC4)O[C@@H](C)[C@H](C)[C@@H]3O	TEKI(SI)	-	PBMC	-	0.5 µM
CC(C)C1=C2C3CCC4[C@@]5(C)CC[C@H](OC(=O)CC(C)(C)C(=O)O)C(C)(C)C5CC[C@@]4(C)[C@]3(C)CC[C@@]2(NC(=O)OCCN2CCCC2=O)CC1=O	IIIB	30% human serum	MT-2	-	<0.199 µM
O=c1[nH]cnc2c1ncn2[C@@H]1C[C@@H](F)[C@H](CO)O1	LAV	-	PBM	-	>100 µM
CCCCCCCCCCCCCCCCOP(=O)(OCCO[C@@H]1O[C@H](CO)[C@@H](O)[C@H](O)[C@@H]1O)OC[C@H]1O[C@@H](n2cc(C)c(=O)[nH]c2=O)C[C@@H]1N=[N+]=[N-]	LAV-Bru	11 d	U-937	-	>1 µM
CCOc1cc(/C=N/NC(=O)Cn2nc(-c3ccccc3)c3c2-c2ccccc2S(=O)(=O)N3C)ccc1O	LAV-1	-	PBMC	-	5.4 µM
Nc1nc(NC2CC2)c2ncn([C@H]3CO[C@@H](CO)O3)c2n1	HXB2(RT-V75I) Recombinant	-	MT-2	RT-V75I	1.1 µM
Nc1nc(=O)n([C@H]2O[C@@H](CO)[C@H](O)C2(F)F)cc1Br	LAI	-	PBMC	-	>100 µM
CC(=O)N[C@@H](CS)C(=O)NCCSC(=O)C(C)C	BaL	-	MDM	-	110 µM
CN(C)CCNc1nc(-c2cccc(SCCN(C)C)c2)cc(-c2cccs2)n1	LAV-1	-	PBMC	-	1.3 µM
Nc1nc2c(ncn2[C@@H]2C[C@@H](F)[C@H](CO)O2)c(=O)[nH]1	LAV	-	PBM	-	>51.3 µM
CC(=O)N[C@@H](CSC(=O)C(C)(C)C)C(=O)NCCSC(=O)c1ccccc1	BaL	-	MDM	-	>150 µM
CC(C)C1=C2C3CCC4[C@@]5(C)CC[C@H](OC(=O)CC(C)(C)C(=O)O)C(C)(C)C5CC[C@@]4(C)[C@]3(C)CC[C@@]2(NC(=O)NC(C)c2ccccn2)CC1=O	IIIB	30% human serum	MT-2	-	<0.199 µM
CCOC(=O)[C@H](C)NP(=O)(OC[C@@H]1OC[C@H](n2cnc3c(N)nc(N)nc32)O1)Oc1ccccc1	LAV-1	-	PBMC	-	0.25 µM
CN(C)CCNc1nc(-c2ccc(SCCN(C)C)cc2)cc(-c2cccs2)n1	LAV-1	-	PBMC	-	1.26 µM
COc1ccc(/C=N/NC(=O)Cn2nc(-c3ccccc3)c3c2-c2ccccc2S(=O)(=O)N3C)cc1	LAV-1	-	PBMC	-	17.1 µM
CC1=N/C(=C/c2ccco2)C(=O)N1c1nc(C)cc(=O)[nH]1	-	-	-	-	83.03 µg/mL
Cc1cn([C@H]2C[C@H](N=[N+]=[N-])[C@@H](CO)O2)c(=O)[nH]c1=O	302506 (subtype B)	-	PBMC	-	0.00045 µM
C/C=C1/N=C(c2ccccc2)N(c2nc(C)cc(Cl)n2)C1=O	-	-	-	-	43.22 µg/mL
CC(=O)N[C@@H](CSC(=O)C(C)(C)C)C(=O)NCCSC(=O)C(C)C	BaL	-	MDM	-	<150 µM
CCCCCCCCCC(=O)Nc1nc(N)nc2c1ncn2[C@H]1CO[C@@H](COP(=O)(N[C@@H](C)C(=O)OCC)Oc2ccccc2)O1	LAV-1	-	PBMC	-	1.5 µM
C=C(C)[C@@H]1CC[C@]2(NC(C)=O)CC[C@]3(C)[C@H](CC[C@@H]4[C@@]5(C)CC[C@H](OC(=O)CC(C)(C)C(=O)O)C(C)(C)[C@@H]5CC[C@]43C)[C@@H]12	IIIB	-	MT-2	-	>0.199 µM
Nc1nc2c(ccn2[C@H]2C=C[C@@H](CO)C2)c(=O)[nH]1	LAI	-	CEMx174 + CEM	-	25 µM
CC(=O)N[C@@H](CSC(C)=O)C(=O)NCCSC(=O)C(C)(C)C	BaL	-	MDM	-	<150 µM
Nc1nc2c(ncn2[C@H]2O[C@@H](CO)[C@H](O)C2(F)F)c(=O)[nH]1	LAI	-	PBMC	-	>100 µM
C=C(C)[C@@H]1CC[C@]2(NC(N)=O)CC[C@]3(C)[C@H](CC[C@@H]4[C@@]5(C)CC[C@H](OC(=O)CC(C)(C)C(=O)O)C(C)(C)[C@@H]5CC[C@]43C)[C@@H]12	IIIB	-	MT-2	-	>0.199 µM
CC(C)C1=C2C3CCC4[C@@]5(C)CC[C@H](OC(=O)CC(C)(C)C(=O)O)C(C)(C)C5CC[C@@]4(C)[C@]3(C)CC[C@@]2(NC(=O)OC2CCS(=O)(=O)CC2)CC1=O	IIIB	30% human serum	MT-2	-	<0.199 µM
Cn1cc(C(=O)O)c(=O)c2cc(N)c(N3CCN(c4ccccn4)CC3)cc21	HXBc2	-	Jurkat cells	-	0.6 µM
CC1=N/C(=C/c2ccccc2O)C(=O)N1c1nc(C)cc(Cl)n1	-	-	-	-	65.67 µg/mL
O=C(CNC(=O)COc1ccccc1)NCc1ccc(C(=O)N2CCCCC2)cc1	89BZ167	-	PBMC	-	17.7 µM
C=C(C)[C@@H]1CC[C@]2(NC(=O)OC)CC[C@]3(C)[C@H](CC[C@@H]4[C@@]5(C)CC[C@H](OC(=O)CC(C)(C)C(=O)O)C(C)(C)[C@@H]5CC[C@]43C)[C@@H]12	IIIB	-	MT-2	-	>0.199 µM
CCCCCCCCCCCCCC(=O)Nc1nc(N)nc2c1ncn2[C@H]1CO[C@@H](COP(=O)(N[C@@H](C)C(=O)OCC)Oc2ccccc2)O1	LAV-1	-	PBMC	-	0.041 µM
CN(C)CCNc1cc(NCCN(C)C)nc(-c2cc3ccccc3s2)n1	LAV-1	-	PBMC	-	2 µM
Cc1cc(Cl)nc(N2C(=O)/C(=C\c3ccco3)N=C2c2ccccc2)n1	-	-	-	-	53.03 µg/mL
C=C(C)[C@@H]1CC[C@]2(NC(=O)CCN3CCCC3)CC[C@]3(C)[C@H](CC[C@@H]4[C@@]5(C)CC[C@H](OC(=O)CC(C)(C)C(=O)O)C(C)(C)[C@@H]5CC[C@]43C)[C@@H]12	IIIB	-	MT-2	-	>0.199 µM
COc1ccnc2[nH]cc(C(=O)C(=O)N3CCN(C(=O)c4ccccc4)C[C@H]3C)c12	LAI(GP120-V68A M434I) Recombinant	-	MT-2	GP120-V68A M434I	0.309 µM
CC(=O)Nc1ccc(/C=N/NC(=O)Cn2nc(-c3ccccc3)c3c2-c2ccccc2S(=O)(=O)N3C)cc1	LAV-1	-	PBMC	-	>100 µM
CC(=O)N[C@@]12CC[C@]3(C)[C@H](CC[C@@H]4[C@@]5(C)CC[C@H](OC(=O)CC(C)(C)C(=O)O)C(C)(C)[C@@H]5CC[C@]43C)C1=C(C(C)C)C(=O)C2	IIIB	30% human serum	MT-2	-	<0.199 µM
CC1=N/C(=C/c2ccc(Cl)cc2Cl)C(=O)N1c1nc(C)cc(=O)[nH]1	-	-	-	-	56.24 µg/mL
CC(C)C1=C2C3CCC4[C@@]5(C)CC[C@H](OC(=O)CC(C)(C)C(=O)O)C(C)(C)C5CC[C@@]4(C)[C@]3(C)CC[C@@]2(NC(=O)OC2CCN(C(=O)OC(C)(C)C)CC2)CC1=O	IIIB	30% human serum	MT-2	-	<0.199 µM
CN(C)CCSc1cccc(-c2cc(-c3cccs3)nc(SCCN(C)C)n2)c1	LAV-1	-	PBMC	-	0.8 µM
CN1c2c(-c3ccccc3)nn(CC(=O)N/N=C/c3cccc(Br)c3)c2-c2ccccc2S1(=O)=O	LAV-1	-	PBMC	-	>100 µM